Reference: PubChem BioAssay AID1259414 (Drosophila RNAi Screening Center, 2018)
Purpose: 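Host factors increasing or decreasing Wolbachia levels in cultured fly cells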 (primary screen). Cells: Drosophila JW18 cells infected with Wolbachia. Knock-down reagent: long dsRNA against Drosophila genes, 0.25 µg dsRNA per well of a 384-well plate. Time to read-out: 5 days. Challenge: cells persistently infected with Wolbachia before knock-down; no added drug. Measurement: 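Automated imaging of bacterial rRNA staining divided by host cell count, reported as plate-normalised robust z-score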. Reading the numbers: Wolbachia per cell robust z: higher = more Wolbachia per host cell than the plate typical. Hit rule: 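Hit when robust z is 1.5 or more, or -1.5 or less, in at least two of three replicates; excludes dsRNAs with several or no targets, genes not expressed in JW18 and well A1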.
In all, the deposit lists about 24,000 reagents; this is a random part of those that have a named target and a result. Over the whole deposit, about 1,210 (5%) were called active. 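Inactive calls also include excluded dsRNAs with several or no targets, genes unexpressed in JW18, and well A1, regardless of score.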 Entries without a mark were called inactive. Names joined by + are all predicted targets of the reagent.

Against CG33093 [DRSC15775] the deposit lists Wolbachia per cell robust z, rep 1 = 0.949; Wolbachia per cell robust z, rep 2 = 0.153; Wolbachia per cell robust z, rep 3 = -1.28. Silencing of CG12003 [DRSC08214] gave: Wolbachia per cell robust z, rep 1 = -2 (active); Wolbachia per cell robust z, rep 2 = -0.887; Wolbachia per cell robust z, rep 3 = -3.56. After knock-down of CG33509 [DRSC37778], the screen gave Wolbachia per cell robust z, rep 1 = 1.16; Wolbachia per cell robust z, rep 2 = -0.615; Wolbachia per cell robust z, rep 3 = 1.41. For MFS1 [DRSC04115], the entry reads Wolbachia per cell robust z, rep 1 = -0.434; Wolbachia per cell robust z, rep 2 = -0.758; Wolbachia per cell robust z, rep 3 = -1.08. MFS1 [DRSC27926] scored Wolbachia per cell robust z, rep 1 = -0.294; Wolbachia per cell robust z, rep 2 = -0.0497; Wolbachia per cell robust z, rep 3 = -0.523. Silencing of UQCR-11 [DRSC38687] gave: Wolbachia per cell robust z, rep 1 = -0.726; Wolbachia per cell robust z, rep 2 = 0.656; Wolbachia per cell robust z, rep 3 = -1.71.

CR10991 [DRSC12156] gave Wolbachia per cell robust z, rep 1 = -0.16; Wolbachia per cell robust z, rep 2 = 0.0143; Wolbachia per cell robust z, rep 3 = -1.24.

2 entries from above, reduced to “Wolbachia per cell robust z, rep 3”:
CG33509 [DRSC37778] = 1.41
MFS1 [DRSC04115] = -1.08

Next entries follow:
After knock-down of CG18609 [DRSC06775], the screen gave Wolbachia per cell robust z, rep 1 = 0.605; Wolbachia per cell robust z, rep 2 = 0.724; Wolbachia per cell robust z, rep 3 = -0.308. With knock-down of CG18609 [DRSC27601] the results were Wolbachia per cell robust z, rep 1 = -1.38; Wolbachia per cell robust z, rep 2 = 0.0971; Wolbachia per cell robust z, rep 3 = 0.506. CG17271 [DRSC15210] showed Wolbachia per cell robust z, rep 1 = -1.04; Wolbachia per cell robust z, rep 2 = 0.473; Wolbachia per cell robust z, rep 3 = -3.26. After knock-down of CG17271 [DRSC22982] the results were Wolbachia per cell robust z, rep 1 = -0.645; Wolbachia per cell robust z, rep 2 = -0.0978; Wolbachia per cell robust z, rep 3 = -1.85. CG17271 [DRSC25780] gave Wolbachia per cell robust z, rep 1 = -0.00499; Wolbachia per cell robust z, rep 2 = -0.454; Wolbachia per cell robust z, rep 3 = -0.319. Knock-down of CG42380 + CG42381 + CG42379 + 1 more [DRSC03884] resulted in: Wolbachia per cell robust z, rep 1 = -0.0115; Wolbachia per cell robust z, rep 2 = 0.13; Wolbachia per cell robust z, rep 3 = 0.0484.

For ImpE2 [DRSC08665], the entry reads Wolbachia per cell robust z, rep 1 = 1.01; Wolbachia per cell robust z, rep 2 = -0.241; Wolbachia per cell robust z, rep 3 = 0.197. Against ImpE2 [DRSC28588], the values are Wolbachia per cell robust z, rep 1 = -0.378; Wolbachia per cell robust z, rep 2 = 0.0577; Wolbachia per cell robust z, rep 3 = 1.46. After knock-down of 825-Oak + CG32213 + CG32214 [DRSC27977] the results were Wolbachia per cell robust z, rep 1 = 0.175; Wolbachia per cell robust z, rep 2 = -0.406; Wolbachia per cell robust z, rep 3 = 0.256.
